PubChem BioAssay AID1224833, University of Georgia | 2016
The whole screen tested about 12,000 reagents; shown is a part drawn at random. Over the whole deposit, about 5,600 (46%) are marked active. 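Active calls cover z-scores past 1 in both directions, so they include lowered as well as raised rotavirus replication.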 Entries without a mark were called inactive. No sequences are given here.

Assay: 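Host factors restraining rotavirus as candidate antiviral genes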 (primary screen)
Cell system: monkey MA104 kidney cells
Reagents: siRNA pool against human genes, 50 nM
Timing: 48 h knock-down before infection; read 24 h after infection
Treatment: infection with rotavirus strain RV3 two days after transfection; infectious dose for this stage not given
Measurement: 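Rotavirus antigen per well by fluorescent immunoassay, normalised to non-targeting control wells on each plate and given as a standard z-score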
Reading the numbers: z-score vs non-targeting control: higher = more rotavirus replication than with non-targeting control
Rule for the call: In these data the active calls have z-score vs non-targeting control at about -1 or lower, or at about 1 or higher
Meaning of the calls: active = z-score beyond 1 either way; inactive = z-score within 1 of zero

no.	Target gene	z-score vs non-targeting control
1	PRSS8	1.62 (active)
2	RLN2	-1.61 (active)
3	COQ4	-1.27 (active)
4	KDELR3	2.51 (active)
5	TF	-0.106
6	HCRT	0.693
7	ODF2L	0.631
8	DRC11	-1.7 (active)
9	NGB	0.808
10	ZNF804A	-3.57 (active)
11	FAM13B	1.39 (active)
12	CD27	1.49 (active)
13	FANCF	-0.91
14	BASP1	-1.93 (active)
15	DAND5	-1.43 (active)
16	SMCR8	-2.3 (active)
17	MON1A	0.86
18	LARP4B	-1.21 (active)
19	MMP28	1.55 (active)
20	TH	-1
21	FASTKD4	-1.21 (active)
22	SULT1C2	2.25 (active)
23	ST8SIA4	-1.09 (active)
24	SLC16A14	0.447
25	PNLIP	0.633
26	RAB12	0.801
27	CHMP7	0.509
28	CSMD3	0.928
29	MMRN2	-0.728
30	OR52E4	-0.558
31	HSD17B12	0.742
32	NSMCE3	0.206
33	LILRA1	-1.07 (active)
34	CDC50A	-1.21 (active)
35	KRT74	-0.169
36	LIN9	-0.308
37	RPL7	-1.74 (active)
38	OR2T10	0.187
39	IDS	0.827
40	KRTAP15-1	-1.93 (active)
41	GSR	-1.95 (active)
42	CFAP263	0.607
43	OPN1MW	1.28 (active)
44	KLK13	-0.795
45	VN1R2	1.54 (active)
46	GCG	0.751
47	ACCSL	-1.37 (active)
48	CRHBP	0.469
49	OR5M10	-0.719
50	OSGEP	-1.4 (active)
51	FGF23	-0.909
52	CEACAM3	-1.34 (active)
53	SF3B4	0.463
54	MSX2	-2.42 (active)
55	NGRN	-0.978
56	SELENOV	1.38 (active)
57	WNT4	-1.05 (active)
58	LSM6	0.754
59	B3GALT2	2.08 (active)
60	GOLIM4	0.738
61	WWP1	-1.08 (active)
62	ZIC3	-2.83 (active)
63	NOPCHAP1	-0.909
64	PRDM16	-2.57 (active)
65	EBNA1BP2	0.524
66	PIK3AP1	2.03 (active)
67	MED27	1.93 (active)
68	YIPF2	-1.16 (active)
69	PNPLA3	-0.0416
70	ZNF485	-1.17 (active)
71	PKP4	-0.0901
72	VGLL1	-0.47
73	AANAT	0.775
74	WNT7B	0.116
75	LTBP1	2.19 (active)
76	FAM171B	-0.306
77	WRN	-2.1 (active)
78	B4GALT4	-2.12 (active)
79	KLHL35	1.67 (active)
80	ELSPBP1	0.59
81	ANLN	-1.43 (active)
82	CLN3	0.392
83	TSN	-1.53 (active)
84	MICA	-1.37 (active)
85	MTHFD1L	-1.42 (active)
86	DEFB125	-0.699
87	TAC1	-1.82 (active)
88	CEP70	-1.43 (active)
89	ALG3	-1.62 (active)
90	IL1R1	-1.61 (active)
91	ZNF207	-0.842
92	HTR3A	0.748
93	OR6K3	1.24 (active)
94	RBM26	-1.65 (active)
95	RAB39A	-0.891
96	DHH	1.65 (active)
97	PHOX2B	-0.664
98	CLTC	0.417
99	TRMT13	-1.23 (active)
100	GRB14	1.56 (active)
101	HMMR	2.55 (active)
102	TRIM9	-0.111
103	APOC3	1.39 (active)
104	TEKT1	-0.365
105	FCGR1BP	-0.861
106	HLA-A	-0.163
107	SLC8A1	-0.902
108	SEC61B	-1.13 (active)
109	CYB5R1	0.657
110	ZNF490	-0.714

A stretch taken from the entries so far:
no.	Target gene	z-score vs non-targeting control
88	CEP70	-1.43 (active)
89	ALG3	-1.62 (active)
90	IL1R1	-1.61 (active)
91	ZNF207	-0.842
92	HTR3A	0.748
93	OR6K3	1.24 (active)
94	RBM26	-1.65 (active)
95	RAB39A	-0.891
96	DHH	1.65 (active)
97	PHOX2B	-0.664
98	CLTC	0.417
99	TRMT13	-1.23 (active)
100	GRB14	1.56 (active)
101	HMMR	2.55 (active)
102	TRIM9	-0.111
103	APOC3	1.39 (active)
104	TEKT1	-0.365
105	FCGR1BP	-0.861
